Peptide text beside a SMILES is read from it.
Test system: drug-resistant clinical isolates and E. coli ML-35p
Test: Checkerboard titration, all tested bacteria together
Type: cell-based
Details: planktonic bacteria, Table 2; 16 out of 24, 15 out of 30, 12 out of 30
Experimental: The mode of interaction of the test substances while applied in combinations was analyzed based on the calculation of the fractional (or combination) indices—the mathematical “embodiment” of the Loewe additivity paradigm that we used for the classification of combination effects in this study. As synergy is generally defined as a greater than additive effect, and antagonism as a lower than additive effect, the main problem is to establish a reference level for this additive effect. The Loewe approach uses the idea of the self-additivity of an individual substance; thus, the individual activity may be regarded as an additivity control. To identify additivity, synergy, or antagonism in Loewe terms, one should choose a fixed level of the studied effect and then compare the doses of individual substances required to reach this level, with the fractional doses of the substances in combination providing the same level of the effect.
In the case of activity testing of combinations toward planktonic bacteria, a checkerboard titration scheme was used to create an array of mixtures of the two substances (A and B) in various concentrations by diluting the first one two-fold row-by-row and the second one column-by-column. The left column and the bottom row contained the dilutions of only one substance (A or B) to control their individual activity levels in every experiment. […]

Row | SMILES | Share of synergy cases among tested combinations
1 | CC(C)C[C@H](NC(=O)[C@H](CCCNC(=N)N)NC(=O)CNC(=O)CNC(=O)[C@@H](N)CCCNC(=N)N)C(=O)N[C@H]1CSSC[C@@H](C(=O)N[C@H](C(=O)NCC(=O)N[C@@H](CCCNC(=N)N)C(N)=O)C(C)C)NC(=O)[C@H](C(C)C)NC(=O)[C@@H]2CSSC[C@H](NC(=O)[C@H](Cc3ccc(O)cc3)NC1=O)C(=O)N[C@@H](CCCNC(=N)N)C(=O)N[C@@H](CCCNC(=N)N)C(=O)N[C@@H](CCCNC(=N)N)C(=O)N[C@@H](Cc1ccccc1)C(=O)N2 [PG-1, protegrin 1] | 40%
2 | CC[C@H](C)[C@H](NC(=O)[C@H](CCCNC(=N)N)NC(=O)[C@@H](NC(=O)[C@@H]1CCCN1C(=O)[C@@H]1CCCN1C(=O)[C@H](CCCNC(=N)N)NC(=O)[C@H](CCCNC(=N)N)NC(=O)[C@H](Cc1ccccc1)NC(=O)[C@@H]1CCCN1C(=O)[C@H](CC(C)C)NC(=O)[C@H](CCCNC(=N)N)NC(=O)[C@H](Cc1ccccc1)NC(=O)[C@@H](N)CCCNC(=N)N)[C@@H](C)CC)C(=O)N[C@@H](Cc1c[nH]cn1)C(=O)N1CCC[C@H]1C(=O)N1CCC[C@H]1C(=O)N1CCC[C@H]1C(=O)N[C@@H](Cc1ccccc1)C(=O)N[C@@H](Cc1ccc(O)cc1)C(=O)N1CCC[C@H]1C(=O)N1CCC[C@H]1C(=O)N[C@@H](Cc1ccccc1)C(=O)N[C@@H](CCCNC(=N)N)C(=O)N[C@@H](CCCNC(=N)N)C(=O)N[C@@H](Cc1ccccc1)C(=O)N[C@@H](CC(C)C)C(=O)O [ChBac3.4] (H-RFRLPFRRPPIRIHPPPFYPPFRRFL-OH; N-terminus assumed) | 50%

Reference: paper PMC9863607, “Combined Use of Antimicrobial Peptides with Antiseptics against Multidrug-Resistant Bacteria: Pros and Cons” (Pharmaceutics, 2023)
